Source: publication PMC10221074 (Toxins, 2023)
End groups of sequences in plain letters are not given here.

experiment: peptide made by a vendor; settings: whole synthesis, HPLC and mass spectrometry by the supplier, scale of the general procedure 10 mg of each peptide

Sequence | purity (crude or final not stated)
SLLGLLDVVKNTVGQTG | 82.4%
DVVKSKVGQT | 98.6%
SLLGLLDVVKSKVGQTGLL | 95.4%
LLDVVKSKIGQTGLL | 92.0%
SLFGLLDLVKNKVGQTGLL | 93.5%
SLFGLLDLVKSKVGQTGLL | 82.0%
SLLGLLDVVKNTVGQT | 95.7%
SLLGLLDVVKNKVGQIG | 97.3%
SLLGLLDVVKSKIGQT | 80.3%
SLLGLLDVVKNTVGQ | 93.4%
SLLGLLDVVKSKIGQTGLL | 83.9%
GSLLGLLDVVKSKVGQTGLL | 89.4%
SLLGLLDVVKSKIGQTG | 90.6%
SLLGLLDVVKNKVGQI | 87.8%
SLLGLLDVVKNTVGQTGLL | 70.5%
SLLGLLDVVKNKVGQIGLL | 96.8%
